Pooled drug test results. Numbers come from NIAID ChemDB, via PubChem.

Common to all: toxicity to cultured cells; cell line: ATH8; endpoint: CC50

CCn: concentration that lowers growth or viability of the cells by n%. Lines come from different laboratories, so protocols vary.

compound | value
Nc1ncnc2c1ncn2[C@H]1CC[C@@H](CO)O1 | >500 µM
Nc1ncnc2c1ncn2[C@H]1CC[C@@H](CO)O1 | >200 µM
Nc1nc2c(ncn2[C@H]2CC[C@@H](CO)O2)c(=O)[nH]1 | >500 µM
Nc1ccn([C@H]2CC[C@@H](CO)O2)c(=O)n1 | >10 µM
CCS[C@H]1C[C@H](n2cc(C)c(=O)[nH]c2=O)O[C@@H]1CO | >100 µM
Cc1cn([C@H]2CC[C@@H](CO)O2)c(=O)nc1N | >100 µM
O=c1[nH]cnc2c1ncn2[C@H]1CC[C@@H](CO)O1 | >100 µM
O=c1ccn([C@H]2CC[C@@H](CO)O2)c(=O)[nH]1 | >500 µM
NC(=O)c1ncn([C@@H]2O[C@H](CO)[C@@H](O)[C@H]2O)n1 | <100 µg/mL
Nc1ncnc2c1ncn2C=C=CCCl | <100 µM
Cc1cn([C@H]2C=C[C@@H](CO)O2)c(=O)[nH]c1=O | 110 µM
Nc1ncnc2c1ncn2[C@H]1CC[C@@H](CO)O1 | >500 µM
CC(C)(C)NC(=O)[C@H]1N(C(=O)[C@@H](O)[C@H](Cc2ccccc2)NC(=O)[C@H](CC(N)=O)NC(=O)COc2cccc3ccccc23)CSC1(C)C | 30 µM
Cc1cn([C@H]2C[C@H](N=[N+]=[N-])[C@@H](CO)O2)c(=O)[nH]c1=O | >10 µM
Nc1ccn([C@H]2CC[C@@H](CO)O2)c(=O)n1 | 30 µM
Nc1ccn([C@H]2CC[C@@H](CO)O2)c(=O)n1 | 18 µg/mL
CC(C)(C)NC(=O)[C@@H]1CCCN1C(=O)[C@@H](O)[C@H](Cc1ccccc1)NC(=O)[C@H](CC(N)=O)NC(=O)COc1cccc2ccccc12 | >20 µM
Cc1cn([C@H]2C[C@H](N=[N+]=[N-])[C@@H](CO)O2)c(=O)[nH]c1=O | 40 µM
Nc1ccn(C/C=C/CCl)c(=O)n1 | <100 µM
Cc1cn([C@H]2C=C[C@@H](CO)O2)c(=O)[nH]c1=O | 110 µM
Cc1cn([C@H]2C[C@H](OCC(=O)O)[C@@H](CO)O2)c(=O)[nH]c1=O | >100 µM
Nc1nc(N)c2ncn([C@@H]3C[C@H](CO)[C@@H](O)C3)c2n1 | 32 µg/mL
Nc1nc2c(nc(Br)n2[C@@H]2C[C@H](CO)[C@H]2CO)c(=O)[nH]1 | >100 µM
Cc1cn([C@H]2C=C[C@@H](CO)O2)c(=O)[nH]c1=O | 110 µM
Cc1cn([C@H]2CC[C@@H](CO)O2)c(=O)[nH]c1=O | >100 µM
CNc1ncnc2c1ncn2[C@@H]1C[C@H](CO)[C@H]1CO | >500 µM
Nc1ccn([C@H]2CC[C@@H](CO)O2)c(=O)n1 | 35 µM
Nc1ncnc2c1ncn2C[C@H](O)CO | <1 µg/mL
Nc1nc2c(ncn2[C@H]2CC[C@@H](CO)O2)c(=O)[nH]1 | >200 µM
Nc1ccn([C@H]2CC[C@@H](CO)O2)c(=O)n1 | >50 µM
O=c1[nH]cnc2c1ncn2[C@@H]1C[C@H](CO)[C@H]1CO | >500 µM
NC(=O)c1ncn([C@@H]2O[C@H](CO)[C@@H](O)[C@H]2O)n1 | >2.5 µM
Nc1ncnc2c1ccn2[C@@H]1O[C@H](CO)[C@@H](O)[C@H]1O | <0.02 µg/mL
Cc1cn([C@H]2CC[C@@H](COP(=O)(O)O)O2)c(=O)[nH]c1=O | >200 µM
Nc1nc2c(ncn2[C@@H]2C[C@H](CO)[C@H]2CO)c(=O)[nH]1 | >100 µM
Nc1ccn([C@H]2C=C[C@@H](CO)O2)c(=O)n1 | 30 µM
Cc1cn([C@H]2CC[C@@H](CO)O2)c(=O)[nH]c1=O | >1000 µM
Nc1nc2c(ncn2CC(O)CCO)c(=O)[nH]1 | >100 µM
Cc1cn([C@@H]2C[C@H](CO)[C@@H](N=[N+]=[N-])C2)c(=O)[nH]c1=O | >100 µg/mL
O=c1[nH]cnc2c1ncn2[C@H]1CC[C@@H](CO)O1 | >1000 µM
Nc1ccn([C@H]2CC[C@@H](CO)O2)c(=O)n1 | 35 µM
Nc1ncnc2c1ncn2[C@H]1CC[C@@H](CO)O1 | >620 µM
CNc1nc(=O)n([C@H]2C[C@H](N=[N+]=[N-])[C@@H](CO)O2)cc1C | >100 µM
CC(C)[C@H](NC(=O)N(C)Cc1ccccn1)C(=O)N[C@@H](Cc1ccccc1)[C@H](O)[C@@H](O)[C@H](Cc1ccccc1)NC(=O)[C@@H](NC(=O)N(C)Cc1ccccn1)C(C)C | >100 µM
CCC(C)C(NC(=O)[C@@H]1CCCN1C(=O)[C@@H](O)[C@H](Cc1ccccc1)NC(=O)[C@H](CC(N)=O)NC(=O)OCc1ccccc1)C(=O)NCC1CCCCC1 | 20 µM

The first 4 rows once more:

compound,value
Nc1ncnc2c1ncn2[C@H]1CC[C@@H](CO)O1,>500 µM
Nc1ncnc2c1ncn2[C@H]1CC[C@@H](CO)O1,>200 µM
Nc1nc2c(ncn2[C@H]2CC[C@@H](CO)O2)c(=O)[nH]1,>500 µM
Nc1ccn([C@H]2CC[C@@H](CO)O2)c(=O)n1,>10 µM